Reference: the supplement of paper PMC3578754
Fold change is the IC50 on the isolate divided by the IC50 on a reference virus; 1 = unchanged, higher = more resistant. Changes are given against the subtype B consensus. No active / inactive call. The values were gathered from many studies (numbered anew) with different assays, which the source does not name. Most viruses are clinical isolates; some are laboratory strains or clones with known resistance changes. Isolates with mixed residues are left out; stretches that were not sequenced show no change. Round top values that many isolates share are read here as limits; other very high values and 0.1 may be limits too.

Experiments:
Test in all cases: fold change of IC50 against reference virus; higher = more resistant
zidovudine = compound: Cc1cn([C@H]2C[C@H](N=[N+]=[N-])[C@@H](CO)O2)c(=O)[nH]c1=O [zidovudine]
Description: (§1)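 Cell-culture drug susceptibility tests of virus bearing the reverse transcriptase of each isolate, gathered from many studies.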

didanosine = compound: O=c1[nH]cnc2c1ncn2[C@H]1CC[C@@H](CO)O1 [didanosine]
Description: as §1

zalcitabine = compound: Nc1ccn([C@H]2CC[C@@H](CO)O2)c(=O)n1 [zalcitabine]
Description: as §1

stavudine = compound: Cc1cn([C@H]2C=C[C@@H](CO)O2)c(=O)[nH]c1=O [stavudine]
Description: as §1

nevirapine = compound: Cc1ccnc2c1NC(=O)c1cccnc1N2C1CC1 [nevirapine]
Description: as §1

Test System	fold change of IC50 against reference virus (zidovudine)	fold change of IC50 against reference virus (didanosine)	fold change of IC50 against reference virus (zalcitabine)	fold change of IC50 against reference virus (stavudine)	fold change of IC50 against reference virus (nevirapine)
HIV-1 isolate 65 (reverse transcriptase changes: K65R K122E F214L A272P K277R M357T A376T A400T N447S D460N S468T S519N, study 81)	3.3	3.1	3.1	3	–
HIV-1 isolate 249 (reverse transcriptase changes: D67N K70R K122E F214L T215F K219E A272P K277R, study 69)	200	1.3	1.4	3.8	–
HIV-1 isolate 288 (reverse transcriptase changes: T69G K70R L74I K102Q K103N S162C T215F K219Q K277R, study 98)	10	8.2	13	–	27
HIV-1 isolate 289 (reverse transcriptase changes: T69G K102Q S162C K277R, study 98)	1.5	10	11	–	1
HIV-1 isolate 614 (reverse transcriptase changes: K122E F214L A272P K277R M357T A376T A400T N447S D460N S468T S519N, study 10)	1	1	1	–	1
HIV-1 isolate 789 (reverse transcriptase changes: K65R K122E F214L A272P K277R M357T A376T A400T N447S D460N S468T S519N, study 10)	0.3	10	7.7	–	0.9
HIV-1 isolate 811 (reverse transcriptase changes: D67N K70R V118I Q207E R211K F214L T215F K219Q, study 69)	200	–	3	1.2	–
HIV-1 isolate 1000 (reverse transcriptase changes: T69S K102Q S162C, study 39)	–	1.2	1	0.9	–
HIV-1 isolate 1018 (reverse transcriptase changes: K102Q S162C, study 39)	–	1	1	1	–
HIV-1 isolate 1032 (reverse transcriptase changes: V60I D67N K70R I178L H208Y R211K T215Y K219Q L228H, study 69)	400	–	1	0.8	–
HIV-1 isolate 1070 (reverse transcriptase changes: V75T K122E F214L T215Y A272P K277R A376T A400T D460N S468T H483Y K512Q S519N, study 20)	3.6	–	15	3.3	–
HIV-1 isolate 1141 (reverse transcriptase changes: K122E M184V F214L A272P K277R A376T A400T D460N S468T H483Y K512Q S519N, study 20)	1	–	15	1.1	–
HIV-1 isolate 1379 (reverse transcriptase changes: K122E F214L T215Y A272P K277R, study 20)	24	–	1.4	1.3	–
HIV-1 isolate 1438 (reverse transcriptase changes: K122E D123S R211K V245M I326V I329L R358K T377I K390R T403M R461K L469I, study 103)	1	1	1	–	1
HIV-1 isolate 1541 (reverse transcriptase changes: K102Q S162C K277R, study 98)	1	1	1	–	1
HIV-1 isolate 1582 (reverse transcriptase changes: V75T K122E M184V F214L A272P K277R A376T A400T D460N S468T H483Y K512Q S519N, study 20)	1.2	–	30	2.2	–
